Reference: PubChem BioAssay AID624099 (ICCB-Longwood, 2012)
In all, the deposit lists about 21,000 reagents; shown is a part drawn at random. Of all reagents, 497 (2.4%) were called active. 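Higher z means weaker E2 silencing; only reporter increases were scored, and knock-downs that hurt cell survival may mask genuine repressor factors.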 Entries without a mark were called inactive. No sequences are given here.

Aim: 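Human genes that papillomavirus E2 requires to repress the HPV18 LCR promoter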 (primary screen)
System: human C33A cervical carcinoma cells (HPV-negative) stably expressing BPV1 E2 and an HPV18 LCR luciferase reporter
Reagent: siRNA pool against human genes, 40 nM
Timing: 72 h
Measurement: 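HPV18 LCR reporter light per well, converted to plate-wise z-scores that exclude control wells, and averaged over triplicate plates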
Scale: mean z-score and z-score: higher = stronger reporter signal, weaker E2 silencing
Hit rule: 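Hit if mean z-score reaches 2 and two or more of three replicate z-scores also reach 2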

Target gene	mean z-score	z-score, replicate A	z-score, replicate B	z-score, replicate C
LRP1B	-0.66	-0.8	-0.52	-0.66
ASCL1	0.85	0.9	1.48	0.16
LOC401367 (retired record)	-0.9	-0.73	-0.93	-1.05
CDK14	0.97	1.15	0.78	0.99
MAGEB3	0.38	0.12	0.81	0.19
USP38	0.48	0.43	0.53	0.47
BCAT1	0.47	0.85	0.44	0.13
OSMR	1.08	1.45	1.02	0.79
PLEKHA5	1.02	1.19	1.19	0.68
CDCP2	0.61	0.73	0.41	0.68
C19orf18	-1.59	-2.24	-1.14	-1.4
MICALL2	-0.2	-1.4	0.55	0.24
LOC388968 (retired record)	0.35	0.57	0.3	0.17
S100A2	-0.27	-0.2	-0.11	-0.49
PADI3	0.65	0.73	0.77	0.45
CDC50B	-0.43	-0.3	-0.37	-0.62
SLC6A17	0.58	1.01	0.12	0.62
SDHB	-0.16	0.27	-0.61	-0.16
FOXI3	0.37	0.45	0	0.64
LOC389288 (retired record)	0.67	0.51	0.84	0.66
SETD2	0.26	0.1	0.3	0.37
AMPH	0.29	0.47	0.32	0.08
LOC389443 (retired record)	0.22	0.26	0.17	0.23

2 neighbouring reagents already listed:
Target gene	mean z-score	z-score, replicate A	z-score, replicate B	z-score, replicate C
LOC401367 (retired record)	-0.9	-0.73	-0.93	-1.05
CDK14	0.97	1.15	0.78	0.99
